Data as given in PubChem BioAssay AID504761 (Drosophila RNAi Screening Center, 2011).
Aim: 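Insect host genes that dengue virus relies on to spread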 (primary screen). System: D.Mel-2 cells from Drosophila. Reagents: long dsRNA against Drosophila genes. Challenge: infection with dengue virus type 2; dose and infection time not stated. Detection: 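Cells stained for dengue envelope protein and imaged; percent of infected cells per well on duplicate plates, ranked by infection, with stained nuclei counted for cell number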. Direction: infection score: higher = more virus-infected cells; cell count: higher = more cells in the well. Hit rule: 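Low infection ranks in the two replicates (chance level up to 0.065) followed by a retest with a 1.5-fold or larger significant decrease, p below 0.05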. Calls: active = confirmed: knock-down lowers infection; inactive = not picked or not confirmed.
In all, the deposit lists about 22,000 reagents; below is an unselected part of those with a known target gene and a result. In the full data, 116 (0.52%) got an active call. 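Calls depend on retest data that are not deposited; infection was ranked per plate without normalising between plates; the unit of the infection score is not given.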 The raw values are shown without normalisation. Reagent sequences are not shown. Not stated in the record: the amount of reagent, the time to read-out.

Target gene | DRSC id | infection score, replicate 1 | infection score, replicate 2 | cell count, replicate 1 | cell count, replicate 2 | Outcome
CG14671 | DRSC12257 | 12.6 | 2.74 | 5329 | 5833 | inactive
DCTN3-p24 | DRSC04592 | 9.56 | 28.3 | 6443 | 5634 | inactive
DCTN3-p24 | DRSC29156 | 4.53 | 7.24 | 2184 | 6039 | inactive
hrm | DRSC04853 | 8.37 | 4.19 | 6335 | 1073 | inactive
CG14147 | DRSC10149 | 3.17 | 4.03 | 5808 | 6151 | inactive
CG30345 | DRSC05144 | 9.8 | 3.35 | 5733 | 6111 | inactive
CG18609 | DRSC06775 | 4.39 | 1.39 | 5969 | 6095 | inactive
CG18609 | DRSC27601 | 5.25 | 4.65 | 6687 | 6662 | inactive
DENR | DRSC20151 | 8.08 | 4.05 | 6090 | 6167 | inactive
Vha14-1 | DRSC07571 | 0.82 | 1.53 | 5605 | 5686 | active
Sodh2 | DRSC16865 | 1.77 | 15.5 | 6428 | 5571 | inactive
CG13110 | DRSC02208 | 2.18 | 8.37 | 6067 | 6162 | inactive
CG4452 | DRSC10422 | 13.8 | 20.6 | 5488 | 4848 | inactive
Alg10 | DRSC10892 | 2.8 | 1.42 | 5708 | 5930 | inactive
mat | DRSC08376 | 2.95 | 2.54 | 6227 | 5949 | inactive
mat | DRSC22841 | 0.5 | 18.8 | 5192 | 4826 | inactive
mat | DRSC27210 | 6.38 | 2.69 | 6189 | 6271 | inactive
Inx6 | DRSC20579 | 5.37 | 2.49 | 4769 | 5617 | inactive
Inx6 | DRSC26299 | 10.3 | 3.34 | 6220 | 6082 | inactive
sofe | DRSC19751 | 8.81 | 7.06 | 6337 | 6441 | inactive
RfC3 | DRSC03411 | 13.7 | 3.27 | 4925 | 581 | inactive
CG13708 | DRSC08317 | 3.71 | 3.22 | 5963 | 6482 | inactive
reb | DRSC06308 | 3.83 | 8.16 | 6947 | 6874 | inactive
CG10919 | DRSC14283 | 5.14 | 11.3 | 6441 | 6518 | inactive
Nxt1 | DRSC04630 | 6.91 | 8.05 | 5386 | 6097 | inactive
Nxt1 | DRSC28865 | 10.6 | 4.58 | 1335 | 982 | inactive
CG16854 | DRSC02536 | 24.8 | 15.7 | 5682 | 5810 | inactive
Ugt35E1 | DRSC15193 | 5.08 | 6.69 | 6137 | 6757 | inactive
Ugt35E1 | DRSC27215 | 17.1 | 5.2 | 5482 | 6737 | inactive
PPO1 | DRSC05929 | 16.6 | 21 | 5587 | 5292 | inactive
CG10433 | DRSC04068 | 5.01 | 36.5 | 6769 | 4907 | inactive
CG10433 | DRSC26255 | 10.5 | 2.29 | 6010 | 5942 | inactive
Sdb | DRSC06272 | 21 | 9.25 | 6206 | 6446 | inactive
Sdb | DRSC06273 | 10 | 11.6 | 6183 | 6504 | inactive
Sdb | DRSC07155 | 8.01 | 16.3 | 6391 | 6437 | inactive
Liprin-gamma | DRSC04093 | 7.72 | 3.16 | 6259 | 6102 | inactive
Paris | DRSC00451 | 29.1 | 17.4 | 5106 | 5290 | inactive
Paris | DRSC29550 | 10.2 | 27.3 | 654 | 5686 | inactive
CG14085 | DRSC10089 | 1.55 | 1.37 | 5990 | 6328 | inactive

Records listed so far with an active call, once more:
Target gene | DRSC id | infection score, replicate 1 | infection score, replicate 2 | cell count, replicate 1 | cell count, replicate 2 | Outcome
Vha14-1 | DRSC07571 | 0.82 | 1.53 | 5605 | 5686 | active
